Laboratory results from the supplement of paper PMC9931576.
Human monoclonal antibodies against the spike receptor-binding domain (heavy:light variable regions). IC50 against pseudoviruses bearing the spike of naturally observed variants; lower = stronger; >10 µg/ml means not reached at the top dose. No active / inactive call. The stated detection limit is 0.0005 µg/ml; values near or below 0.001 µg/ml lie at the floor of the assay.

B1: BD55-6050 (protein)
chain 1: QVQLVQSGAEVKKPGASVKVSCKASGYTFTSSEINWVRQATGQGLEWMGWMNPNSGDTGYAQKFQGRVTLTRSTSTNTAYMELSSLGSEDTAVYYCARGRDYYERGTYFNPHGPYYYYGMDVWGQGTTVTVSS
chain 2: QSVLTQPPSASGTPGQRVIISCSGGSSNIGYNTVNWYQQVAGTAPRLLIYSDNQRPSGVPDRFSGSESGTSASLAISGLQSDDEADYYCASWDDSLNGWVFGGGTKLTVL
B2: BD55-6038 (protein)
chain 1: EVQLVESGGGLVQPGGSLRLSCAASGFTFSNYDMYWVRQSTGKGLEWLSTIGTAGDTYYPDSVKGRFTISRENAKNSLYLQMNSLRAGDTAVYYCVRGDYDSTGFYSFFDNWGQGTLVTVSS
chain 2: DIQMTQSPSSLSASVGDRVTITCRASQTVTNYLNWYQQKPGKAPKLLIYAASSLQSGVPSRFSGSGSGTDFTLTISSLQPEDFATYYCQQSYSTGGYTFGQGTNLEIK
B3: BD55-6044 (protein)
chain 1: EVHLVESGGGLVQPGGSLRLSCAASGFTFSSYGMHWVRQAPGRGLEYVSSISSSGGGTFYADSVKGRFIISRDNSKNTLYLQMGSLRAEDTAVYYCAREGYSDYDFLRWFFDYWGQGTLVTVSS
chain 2: DIQMTQSPSSLSASVGDRVTITCRASQSITTYLNWYQQQPGKAPKLLIYAASSLQSGVPSRFSGSGSGTDFTLTISSLQPEDFATYYCQQSYTSPLYTFGQGTKLEIK
B4: BD55-6052 (protein)
chain 1: EVQLVQSGGGLVQPGGSLRLSCAASGFTFSNYAMHWVRQAPGKGPEYVSSITSDGSGTFYADSVKGRFTISRDNSKNTLFLQMGSLRAEDMAVYYCAREEVDGYNLGGFNYWGQGTPVIVSS
chain 2: DIQMTQSPSSLSASVGARVTITCRASQSISIYLNWYQQKPGKAPKLLIYGASSLQSGVPSRFSGSGSGTDFTLTISSLQPEDFATYYCQQSYTTPEYTFGQGTKLEIK
B5: BD55-6039 (protein)
chain 1: QVQLVQSGSGLKKPGASVKVSCKASGYTFTNYAMNWVRQAPGQGLEWMGWINTNTGHLTYAQGFTGRFVFSLDTSVSTAYLQISSLKAEDTAVYYCARSPGEGGYSGYDFSGYGMDVWGQGTTVTVSS
chain 2: DIQMTQSPSSLSASVGDRVNITCRASQTTRSNLNWYQQKPGKAPKLLIYTASILQSGVPSRFSGSGSGTDFTLSISSLQPEDFATYYCQQSYSTPRTFGQGTKLEIK
B6: BD55-6036 (protein)
chain 1: EVQLVQSGAEMKKPGESLKISCKGSGDSFTRYWIGWVRQMPGKGLEWMGVIYPGDSETRYSPSFQGQVTISADKSISTAYLQWSSLKASDTAMYYCATLLWGMAYGVFDIWGQGTMVTVSS
chain 2: DIVMTQSPDSLAVALGERATINCKSSQSVLYSSTNKNYLAWYQQKPGQPPKLLIYWASTRDSGVPDRFTGSGSGTDFTLTISSLQTEDVAVYYCQEYYSTSYTFGQGTKLEIK

These binders were tested against SARS-CoV-2 Omicron BA.1 spike pseudovirus (assay: pseudovirus neutralization IC50; higher = weaker neutralization).
Protocol: (§1)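 Single-round VSV luciferase pseudovirus mixed with antibody dilutions for 1 h and put on Huh-7 cells for about a day; IC50 from the dose curve.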
B1 was tested, and the “pseudovirus neutralization IC50” value was over 10 µg/mL. B2 was tested, and the “pseudovirus neutralization IC50” value was over 10 µg/mL. For B3, the “pseudovirus neutralization IC50” value was over 10 µg/mL. For B4, the “pseudovirus neutralization IC50” value was over 10 µg/mL. For B5, the “pseudovirus neutralization IC50” value was over 10 µg/mL. For B6, the “pseudovirus neutralization IC50” value was over 10 µg/mL.

These binders were tested against SARS-CoV-2 Omicron BA.2 spike pseudovirus in the same assay as above.
Protocol: as §1
B1 was tested, and the “pseudovirus neutralization IC50” value was over 10 µg/mL. For B2, the “pseudovirus neutralization IC50” value was over 10 µg/mL. B3 was tested, and the “pseudovirus neutralization IC50” value was over 10 µg/mL. In the case of B4, the “pseudovirus neutralization IC50” value is reported as over 10 µg/mL. B5 was tested, and the “pseudovirus neutralization IC50” value was over 10 µg/mL. B6 was tested, and the “pseudovirus neutralization IC50” value was over 10 µg/mL.

Each binder was assayed against SARS-CoV-2 Omicron BA.2.75 spike pseudovirus in the same assay as above.
Protocol: as §1
In the case of B1, the “pseudovirus neutralization IC50” value is reported as over 10 µg/mL. In the case of B2, the “pseudovirus neutralization IC50” value is reported as over 10 µg/mL. For B3, the “pseudovirus neutralization IC50” value was over 10 µg/mL. B4 was tested, and the “pseudovirus neutralization IC50” value was over 10 µg/mL. B5 was tested, and the “pseudovirus neutralization IC50” value was over 10 µg/mL. B6 was tested, and the “pseudovirus neutralization IC50” value was over 10 µg/mL.

The binders below were run against SARS-CoV-2 Omicron BA.5 spike pseudovirus in the same assay as above.
Protocol: as §1
In the case of B1, the “pseudovirus neutralization IC50” value is reported as over 10 µg/mL. For B2, the “pseudovirus neutralization IC50” value was over 10 µg/mL. For B3, the “pseudovirus neutralization IC50” value was over 10 µg/mL. B4 was tested, and the “pseudovirus neutralization IC50” value was over 10 µg/mL. With B5 the “pseudovirus neutralization IC50” value was over 10 µg/mL. For B6, the “pseudovirus neutralization IC50” value was over 10 µg/mL.

Each binder was assayed against SARS-CoV-2 Omicron BQ.1.1 spike pseudovirus in the same assay as above.
Protocol: as §1
For B1, the “pseudovirus neutralization IC50” value was over 10 µg/mL. B2 was tested, and the “pseudovirus neutralization IC50” value was over 10 µg/mL. For B3, the “pseudovirus neutralization IC50” value was over 10 µg/mL. B4 was tested, and the “pseudovirus neutralization IC50” value was over 10 µg/mL. B5 was tested, and the “pseudovirus neutralization IC50” value was over 10 µg/mL. For B6, the “pseudovirus neutralization IC50” value was over 10 µg/mL.

These binders were tested against SARS-CoV-2 Omicron XBB spike pseudovirus in the same assay as above.
Protocol: as §1
For B1, the “pseudovirus neutralization IC50” value was over 10 µg/mL. B2 was tested, and the “pseudovirus neutralization IC50” value was over 10 µg/mL. For B3, the “pseudovirus neutralization IC50” value was over 10 µg/mL. In the case of B4, the “pseudovirus neutralization IC50” value is reported as over 10 µg/mL. With B5 the “pseudovirus neutralization IC50” value was over 10 µg/mL. With B6 the “pseudovirus neutralization IC50” value was over 10 µg/mL.

The binders below were run against SARS-CoV-2 early D614G spike pseudovirus in the same assay as above.
Protocol: as §1
B1 was tested, and the “pseudovirus neutralization IC50” value was over 10 µg/mL. For B2, the “pseudovirus neutralization IC50” value was 1.91 µg/mL. In the case of B3, the “pseudovirus neutralization IC50” value is reported as over 10 µg/mL. With B4 the “pseudovirus neutralization IC50” value was over 10 µg/mL. With B5 the “pseudovirus neutralization IC50” value was over 10 µg/mL. In the case of B6, the “pseudovirus neutralization IC50” value is reported as over 10 µg/mL.
